The text below walks through data of US6670383B2, “Pyranocoumarin compounds as a novel pharmacophore with anti-TB activity” (priority 2001, dated 2003).

The structures appear in SMILES notation.

The subject of this data set is M. tuberculosis H37Ra. Description: MIC and MBC determination using 2-fold dilutions. It counts as cell-based.
As to `C=CCOc1cc(OCC=C)c2c(CCC)cc(=O)oc2c1C(O)CC` (stereo not drawn) [Compound 21d, 5,7-Bis-allyloxy-8-(1-hydroxy-propyl)-4-propyl-chromen-2-one], the MIC/MBC was above 4.

As for `CCCc1cc(=O)oc2c(C(=O)CC)c(OC)c3c(c12)OC(C)(C)CC3` [Compound 44b, 5-Methoxy-2,2-dimethyl-6-propionyl-10-propyl-3,4-dihydro-2H-pyrano[2,3-f]chromen-8-one], the MIC/MBC is above 4.

On to `C=CC(C)Oc1cc2c(c3oc(=O)cc(CCC)c13)C(O)C(C)C(C)O2` (stereo not drawn) [cis-17f, 5-(1-Methylallyloxy)-10-hydroxy-8,9-dimethyl-4-propyl-9,10-dihydro-8H-pyrano[2,3-f]chromen-2-one], for which the MIC/MBC was above 4.
